Pooled drug test results. Numbers come from NIAID ChemDB, via PubChem.

Common to all: whole-cell or culture tests; species: Human cytomegalovirus

Conditions beyond the fields shown may differ between rows. Inhibition is in % at the dose shown (toxicity tests: loss of growth or viability). Blank or dashed fields: not listed here. ECn: concentration that inhibits the pathogen or its effect by n%.

SMILES	dose	cell line	setting	read by	measure	strain	result
O=c1[nH]c(=O)n([C@H]2C[C@H](O)[C@@H](CO)O2)cc1/C=C/Br	10 µM	HEL		plaque count	inhibition		24.3%
Nc1nc2c(ncn2COC(CO)CO)c(=O)[nH]1		MRC-5		hybridisation	EC50	AD169	0.53 µM
CC/C=C\Cn1c(=O)sc2c(=O)[nH]c(N)nc21	40 µM				inhibition	TOWNE	60%
Cn1cc(C(=O)NCc2ccc(Cl)cc2)c(=O)c2cc(CN3CCOCC3)ccc21	5.7 µM	HFF		plaque count	inhibition	A	90%
C[C@H]1O[C@@H](n2c(Br)nc3cc(Cl)c(Cl)cc32)[C@H](O)[C@@H]1O	3 µM	HFF		virus yield	inhibition	Isolate C4 mutations D344E + Q204R	90%
Nc1nc2c(ncn2[C@@H]2C[C@H](CO)[C@H](O)[C@H]2O)c(=O)[nH]1	32 µg/mL	MRC-5		cytopathic effect	inhibition	AD169	25%
CN(C)c1cccc2c(S(=O)(=O)Nc3ccc(NC(=O)C(C)(C)CO)cc3)cccc12		HFF		virus yield	EC90	2916R (1263W94-resistant)	0.9 µM
Nc1nc2c(ncn2COCCO)c(=O)[nH]1	75 µM	HEL		plaque count	inhibition		84%
Nc1nc2c(ncn2COC(CO)CO)c(=O)[nH]1		HFF		plaque count	EC50	TOWNE	2.3 µM
Nc1nc2c(ncn2C=C2CC2CO)c(=O)[nH]1				plaque count	EC50	VR6189 (ganciclovir-susceptible)	2 µM
O=C(NCc1ccc(Cl)cc1)c1c[nH]c2c(F)cccc2c1=O				plaque count	EC50	SAL	18 µM
CC(C)Nc1nc2cc(Cl)c(Cl)cc2n1[C@H]1O[C@@H](CO)[C@H](O)[C@@H]1O		MRC-5		hybridisation	EC50	9330REC5 (HIS520GLU)	0.13 µM
COc1ccc2c(c1)c(CC(=O)O)c(C)n2C(=O)c1ccc(Cl)cc1	500 µM	HFF			inhibition	AD169	5%
CN(Cc1cnc2nc(N)nc(N)c2n1)c1ccc(C(=O)N[C@@H](CCC(=O)O)C(=O)O)cc1	0.2 µM	MRC-5	24 h		inhibition	TOWNE	45%
Nc1nc2c(ncn2COC(CO)CO)c(=O)[nH]1				plaque count	EC50	TOWNE	4.9 µM
O[C@@H]1[C@H](O)[C@H](O)CO[C@H]1n1c(Br)nc2cc(Cl)c(Cl)cc21		HFF		plaque count	EC50	C8914-6 drug-resistant	10 µM
COc1cccc(N2CCN(C3=Nc4c(F)cccc4[C@H](CC(=O)O)N3c3cc(C(F)(F)F)ccc3OC)CC2)c1				plaque count	EC50	Clinical isolate 6	0.0009 µM
Clc1ccc(Nc2ncnc3ccccc23)cc1Cl	3.3 µM	HFF		plaque count	inhibition	AD169-GFP	92%
Cc1nc2ccc(CN(C)c3ccc(C(=O)N[C@@H](CCC(=O)O)C(=O)O)s3)cc2c(=O)[nH]1	0.009 µM			virus yield	inhibition		90%
Oc1ccc(-c2nc(-c3ccc(F)cc3)c(-c3ccncc3)[nH]2)cc1	100 µM	HEL		plaque count	inhibition	TOWNE	>95%
Brc1cccc(Nc2ncnc3ccccc23)c1	3 µM	HFF		plaque count	inhibition	AD169	70%

3 of the rows above, restated:

{"SMILES": "O=c1[nH]c(=O)n([C@H]2C[C@H](O)[C@@H](CO)O2)cc1/C=C/Br", "dose": "10 µM", "cell line": "HEL", "read by": "plaque count", "measure": "inhibition", "result": "24.3%"}
{"SMILES": "COc1cccc(N2CCN(C3=Nc4c(F)cccc4[C@H](CC(=O)O)N3c3cc(C(F)(F)F)ccc3OC)CC2)c1", "read by": "plaque count", "measure": "EC50", "strain": "Clinical isolate 6", "result": "0.0009 µM"}
{"SMILES": "CN(C)c1cccc2c(S(=O)(=O)Nc3ccc(NC(=O)C(C)(C)CO)cc3)cccc12", "cell line": "HFF", "read by": "virus yield", "measure": "EC90", "strain": "2916R (1263W94-resistant)", "result": "0.9 µM"}